Measured values reported in publication PMC8583417, “Evaluation of the Antimicrobial Efficacy of N-Acetyl-L-Cysteine, Rhamnolipids, and Usnic Acid—Novel Approaches to Fight Food-Borne Pathogens” (International Journal of Molecular Sciences, 2021).

System: planktonic cells of Salmonella Infantis S13, Escherichia coli 683/17, Listeria monocytogenes 149, and Staphylococcus aureus 816
Experiment: Transmission electron microscopy imaging of planktonic cells
Format: cell-based
Details: 8 h

CC(=O)N[C@@H](CS)C(=O)O [NAC, N-Acetyl-L-cysteine]
effect on cell morphology (TEM) (3130 µg/mL (subinhibitory concentration)): formation of clusters of increased cell division without significant changes in the appearance of the cells
effect on cell morphology (TEM) (6250 µg/mL (minimum inhibitory concentration), both Gram-positive and Gram-negative bacteria): cell wall disruption and leakage of intracellular components
